Data from article PMC7555893, “Structural role of essential light chains in the apicomplexan glideosome” (Communications Biology, 2020).

Assays:
Experiment in all cases: ITC; 200 uM protein (syringe) injected 19 x 2 uL into 20 uM pre-formed complex of light chain and MyoA peptide (cell, 1:1.1); 20 mM HEPES pH 7.5, 150 mM NaCl, 0.5 mM TCEP with 1 mM CaCl2; 25 °C; one-site model
[1] = molecular target: Pre-complex of TgELC2 with TgMyoA-C (T. gondii) (UniProt O00934)
[2] = molecular target: Pre-complex of TgELC2 R17A with TgMyoA-C (T. gondii) (UniProt O00934)
[3] = molecular target: Pre-complex of TgELC2 E22A with TgMyoA-C (T. gondii) (UniProt O00934)

Row | Substance | Kd [1] [nM] | dH [1] [kcal/mol] | stoichiometry N [1] | stoichiometry N [2] | Kd [3] [nM] | dH [3] [kcal/mol] | stoichiometry N [3]
1 | MLC1-S N172A (domain or fragment) | 4.3 | -41.6 | 0.84 |  |  |  | 
2 | T. gondii myosin light chain 1, short construct (MLC1-S) (domain or fragment) |  |  |  | 0.92 | 5.2 | -45.9 | 0.92
